Pooled drug test results. Numbers come from NIAID ChemDB, via PubChem.

Common to all: tests on isolated targets

a–b is a range or a potency band. ICn is the concentration giving n% inhibition. Blank or dashed fields: not listed here. Neighbouring rows are from separate reports. Fold resistance: result on the changed form divided by that on wild type. Inhibition is in % at the dose shown (toxicity tests: loss of growth or viability).

smiles | read by | target | organism | changes | measure | tested at | strain | result
CC(C)(CCCCCNC(=O)C1CC1)CN(C[C@@H](O)[C@H](Cc1ccccc1)NC(=O)O[C@H]1CO[C@H]2OCC[C@H]21)S(=O)(=O)c1ccc2c(c1)OCO2 | fluorescence | Protease | HIV-1 |  | Ki |  |  | <0.001 µM
O=C(O)c1cc2ncc(-c3ccc(OCc4ccccc4)cc3)c(C3CCCCC3)n2n1 |  | RNA-dependent RNA polymerase | Hepatitis C virus |  | IC50 |  |  | 1–10 µM
Nc1ccn([C@@H]2CS[C@H](COP(=O)(O)OP(=O)(O)OP(=O)(O)O)O2)c(=O)n1 | radiometric | Reverse transcriptase | HIV | RT-K65R | fold resistance |  |  | 1.7
CONC(=O)OCCCC(C)(C)CN(C[C@@H](O)[C@H](Cc1ccccc1)NC(=O)O[C@H]1CO[C@H]2OCC[C@H]21)S(=O)(=O)c1ccc2c(c1)OCO2 | fluorescence | Protease | HIV-1 |  | Ki |  |  | <0.001 µM
O=C(O)c1cnn2c(-c3cccc(-c4ccsc4)c3)ccnc12 |  | RNA-dependent RNA polymerase | Hepatitis C virus |  | IC50 |  |  | >10 µM
Fc1cccc(-c2cncc(N3CCN(c4ccc(F)cc4F)CC3)n2)c1 |  | UL97 kinase | Cytomegalovirus |  | IC50 |  |  | <100 µM
O=C(O)c1ccc2c(c1)nc(-c1ccc3nc(-c4ccccc4)cc(Sc4ccccc4)c3c1)n2C1CCCCC1 |  | NS5B polymerase | Hepatitis C virus |  | inhibition | 100 µM |  | 100%
O=C(N[C@@H](C(=O)O)C1CCCCC1)c1cnn2c(C3CCCCC3)c(-c3ccc(F)cc3)cnc12 |  | RNA-dependent RNA polymerase | Hepatitis C virus |  | IC50 |  |  | 1–10 µM
CC(=O)c1ccccc1-c1cncc(N2CCN(c3ccncc3)CC2)n1 |  | UL97 kinase | Cytomegalovirus |  | IC50 |  |  | <100 µM
CC(C)(CCCCCNC(=O)CO)CN(C[C@@H](O)[C@H](Cc1ccccc1)NC(=O)O[C@H]1CO[C@H]2OCC[C@H]21)S(=O)(=O)c1ccc2c(c1)OCO2 | fluorescence | Protease | HIV-1 |  | Ki |  |  | <0.001 µM
CC(=O)c1ccc(N2CCN(c3cncc(-c4cccc(F)c4)n3)CC2)cc1 |  | UL97 kinase | Cytomegalovirus |  | IC50 |  |  | <100 µM
O=C1c2c(O)c(=O)c(-c3nccs3)cn2CCN1CCCc1cccc(Cl)c1F | ELISA | Integrase | HIV-1 |  | IC50 |  |  | 0.01–0.1 µM
Cc1nc(C)c(N2CCN(c3ccncc3)CC2)nc1-c1cc2ccccc2s1 |  | UL97 kinase | Cytomegalovirus |  | IC50 |  |  | <100 µM
O=C(O)c1cnc2c(c1)nc(-c1ccc3nc(-c4ccccc4-c4ccc(Cl)cc4)ccc3c1)n2C1CCCCC1 |  | NS5B polymerase | Hepatitis C virus |  | inhibition | 100 µM |  | 94.33%
CNC(=O)NCCC(C)(C)CN(C[C@@H](O)[C@H](Cc1ccccc1)NC(=O)O[C@H]1CO[C@H]2OCC[C@H]21)S(=O)(=O)c1ccc2c(c1)OCO2 | fluorescence | Protease | HIV-1 |  | Ki |  |  | <0.001 µM
O=C1c2c(O)c(=O)ccn2C(c2ccccc2)CN1Cc1ccc(Cl)c(Cl)c1 | ELISA | Integrase | HIV-1 |  | IC50 |  |  | 0.01–0.1 µM
Nc1nc(N)c2nc(Cc3ccc(Cl)cc3)c(Cc3ccc(Cl)cc3)nc2n1 |  | Dihydrofolate reductase | Cryptosporidium parvum |  | IC50 |  | TYPE 2 | 1.2 µM
O=C(O)c1ccc2c(c1)nc(-c1ccc3nc(-c4cc5ccccc5o4)ccc3c1)n2C1CCCCC1 |  | NS5B polymerase | Hepatitis C virus |  | inhibition | 33 µM |  | 95.5%
COCC(=O)NCC(=O)NCCCCC(C)(C)CN(C[C@@H](O)[C@H](Cc1ccccc1)NC(=O)O[C@H]1CO[C@H]2OCC[C@H]21)S(=O)(=O)c1ccc2c(c1)OCO2 | fluorescence | Protease | HIV-1 |  | Ki |  |  | <0.001 µM
COc1ccc(-c2cccs2)c(-c2ccc3cc(-c4nc5cc(C(=O)O)ccc5n4C4CCCCC4)ccc3n2)c1 |  | NS5B polymerase | Hepatitis C virus |  | inhibition | 33 µM |  | 101%
O=c1c(-c2ccccc2F)cn2ccn(Cc3cccc(Cl)c3)c(=O)c2c1O | ELISA | Integrase | HIV-1 |  | IC50 |  |  | <0.01 µM
OCc1ccc(-c2cncc(N3CCN(c4ccccc4)CC3)n2)cc1 |  | UL97 kinase | Cytomegalovirus |  | inhibition | 1 µM |  | <50%
O=C(CCc1ccccc1)Nc1cn2ccn(Cc3cccc(Cl)c3)c(=O)c2c(O)c1=O | ELISA | Integrase | HIV-1 |  | IC50 |  |  | <0.01 µM
N#Cc1cnn2c(-c3ccccc3)c(-c3ccc(Oc4ccccc4)cc3)cnc12 |  | RNA-dependent RNA polymerase | Hepatitis C virus |  | IC50 |  |  | >10 µM
CS(=O)(=O)CCC1CN(Cc2ccc(Cl)c(Cl)c2)C(=O)c2c(O)c(=O)ccn21 | ELISA | Integrase | HIV-1 |  | IC50 |  |  | 0.01–0.1 µM
CN(Cc1ccc2nc(N)nc(N)c2n1)c1ccc(C(=O)NC23CC4CC(CC(C4)C2)C3)cc1 |  | Dihydrofolate reductase | Cryptosporidium parvum |  | IC50 |  | TYPE 2 | 1.8 µM
CCOC(=O)c1cnn2c(-c3ccccc3)cc(-c3ccc(Cl)cc3)nc12 |  | RNA-dependent RNA polymerase | Hepatitis C virus |  | IC50 |  |  | >10 µM
CC(C)N(C(=O)c1ccc2cc(-c3nc4cc(C(=O)O)ccc4n3C3CCCCC3)ccc2n1)c1ccc(Cl)cc1 |  | NS5B polymerase | Hepatitis C virus |  | inhibition | 33 µM |  | 99.13%
CN(Cc1ccccc1)C(=O)c1cn2c(c(O)c1=O)C(=O)N(Cc1cccc(Cl)c1)CC2 | ELISA | Integrase | HIV-1 |  | IC50 |  |  | <0.01 µM
CC(C)(CCCCOC(=O)NO)CN(C[C@@H](O)[C@H](Cc1ccccc1)NC(=O)O[C@H]1CO[C@H]2OCC[C@H]21)S(=O)(=O)c1ccc2c(c1)OCO2 | fluorescence | Protease | HIV-1 |  | Ki |  |  | <0.001 µM
CCOc1ccc([N+](=O)[O-])cc1-c1ccc2cc(-c3nc4cc(C(=O)O)ccc4n3C3CCCCC3)ccc2n1 |  | NS5B polymerase | Hepatitis C virus |  | inhibition | 100 µM |  | 101%
CC(C)(CCCNC(=O)CNS(C)(=O)=O)CN(C[C@@H](O)[C@H](Cc1ccccc1)NC(=O)O[C@H]1CO[C@H]2OCC[C@H]21)S(=O)(=O)c1ccc2c(c1)OCO2 | fluorescence | Protease | HIV-1 |  | Ki |  |  | <0.001 µM
O=C(O)c1cc2nccc(-c3cccc(-c4cccc(Cl)c4)c3)n2n1 |  | RNA-dependent RNA polymerase | Hepatitis C virus |  | IC50 |  |  | >10 µM
COCCS(=O)(=O)NCCC(C)(C)CN(C[C@@H](O)[C@H](Cc1ccccc1)NC(=O)O[C@H]1CO[C@H]2OCC[C@H]21)S(=O)(=O)c1ccc2c(c1)OCO2 | fluorescence | Protease | HIV-1 |  | Ki |  |  | <0.001 µM
O=C1c2c(O)c(=O)c(-c3nccs3)cn2CCN1Cc1ccc(Cl)cc1O | ELISA | Integrase | HIV-1 |  | IC50 |  |  | <0.01 µM
Fc1cc(-c2cncc(N3CCN(c4ccccc4)CC3)n2)ccc1-c1ccccc1 |  | UL97 kinase | Cytomegalovirus |  | IC50 |  |  | <100 µM
CCC(=O)c1cn2ccn(Cc3cccc(Cl)c3)c(=O)c2c(O)c1=O | ELISA | Integrase | HIV-1 |  | IC50 |  |  | <0.01 µM
CCCCc1ccc(Cc2nc3nc(N)nc(N)c3nc2Cc2cccc(CCCC)c2)cc1 |  | Dihydrofolate reductase | Cryptosporidium parvum |  | IC50 |  | TYPE 1 | >10 µM
COc1cccc(N2CCN(c3cncc(-c4ccc(F)cc4)n3)CC2)c1 |  | UL97 kinase | Cytomegalovirus |  | IC50 |  |  | <10 µM
COC(=O)c1cc2ncc(-c3ccc(OC)cc3)c(C3CCCCC3)n2n1 |  | RNA-dependent RNA polymerase | Hepatitis C virus |  | IC50 |  |  | >10 µM
CC(C)(CCCCNC(=O)C(C)(C)C)CN(C[C@@H](O)[C@H](Cc1ccccc1)NC(=O)O[C@H]1CO[C@H]2OCC[C@H]21)S(=O)(=O)c1ccc2c(c1)OCO2 | fluorescence | Protease | HIV-1 |  | Ki |  |  | <0.001 µM
CC(C)C(NC(=O)c1ccc2c(c1)nc(-c1ccc3nc(-c4ccccc4)cnc3c1)n2C1CCCCC1)C(=O)O |  | NS5B polymerase | Hepatitis C virus |  | inhibition | 33 µM |  | 81.02%
CC(C)(CCCCCNC(=O)c1ccco1)CN(C[C@@H](O)[C@H](Cc1ccccc1)NC(=O)O[C@H]1CO[C@H]2OCC[C@H]21)S(=O)(=O)c1ccc2c(c1)OCO2 | fluorescence | Protease | HIV-1 |  | Ki |  |  | <0.001 µM
O=c1ccn2ccn(CCCc3cccc(Cl)c3Cl)c(=O)c2c1O | ELISA | Integrase | HIV-1 |  | IC50 |  |  | 0.01–0.1 µM
CC(C)(CCNC(=O)Oc1ccc(F)cc1)CN(C[C@@H](O)[C@H](Cc1ccccc1)NC(=O)O[C@H]1CO[C@H]2OCC[C@H]21)S(=O)(=O)c1ccc2c(c1)OCO2 | fluorescence | Protease | HIV-1 |  | Ki |  |  | <0.001 µM
O=C(O)c1ccc2c(c1)nc(-c1ccc3nc(-c4ccc(F)cc4)c(-c4ccc(F)cc4)nc3c1)n2C1CCCCC1 |  | NS5B polymerase | Hepatitis C virus |  | inhibition | 33 µM |  | 97.88%
COC(=O)NCCCCC(C)(C)CN(C[C@@H](O)[C@H](Cc1ccccc1)NC(=O)OC1COCOC1)S(=O)(=O)c1ccc2c(c1)OCO2 | fluorescence | Protease | HIV-1 |  | Ki |  |  | <0.001 µM
COc1ccc(N2CCN(c3cncc(-c4ccsc4)n3)CC2)cc1OC |  | UL97 kinase | Cytomegalovirus |  | inhibition | 1 µM |  | <50%
CC(C)(CCCNC(=O)NC(C)(C)C)CN(C[C@@H](O)[C@H](Cc1ccccc1)NC(=O)O[C@H]1CO[C@H]2OCC[C@H]21)S(=O)(=O)c1ccc2c(c1)OCO2 | fluorescence | Protease | HIV-1 |  | Ki |  |  | <0.001 µM
CSCCC(NC(=O)c1ccc2c(c1)nc(-c1cc3ncc(-c4ccccc4)nc3cc1F)n2C1CCCCC1)C(=O)O |  | NS5B polymerase | Hepatitis C virus |  | inhibition | 100 µM |  | 88.31%
CC(C)(CCOC(N)=O)CN(C[C@@H](O)[C@H](Cc1ccccc1)NC(=O)O[C@H]1CO[C@H]2OCC[C@H]21)S(=O)(=O)c1ccc2c(c1)OCO2 | fluorescence | Protease | HIV-1 |  | Ki |  |  | <0.001 µM
CC(C)=CCCc1c(-c2ccc(OCc3ccccc3)cc2)nc2c(C(=O)O)c[nH]n2c1=O |  | RNA-dependent RNA polymerase | Hepatitis C virus |  | IC50 |  |  | 1–10 µM
CCCN=C(NC#N)NCCCCCC(C)(C)CN(C[C@@H](O)[C@H](Cc1ccccc1)NC(=O)O[C@H]1CO[C@H]2OCC[C@H]21)S(=O)(=O)c1ccc2c(c1)OCO2 | fluorescence | Protease | HIV-1 |  | Ki |  |  | <0.001 µM
Nc1nc(N)c2nc(CC3CCCCC3)c(CC3CCCCC3)nc2n1 |  | Dihydrofolate reductase | Cryptosporidium parvum |  | IC50 |  | TYPE 1 | >10 µM
COc1ccc2cc(-c3cncc(N4CCN(c5ccccc5OC)CC4)n3)ccc2c1 |  | UL97 kinase | Cytomegalovirus |  | IC50 |  |  | <100 µM
CC(C)(CCCNC(=S)NC(C)(C)C)CN(C[C@@H](O)[C@H](Cc1ccccc1)NC(=O)O[C@H]1CO[C@H]2OCC[C@H]21)S(=O)(=O)c1ccc2c(c1)OCO2 | fluorescence | Protease | HIV-1 |  | Ki |  |  | <0.001 µM

4 of the rows above, restated:

smiles	read by	target	organism	changes	measure	tested at	strain	result
CONC(=O)OCCCC(C)(C)CN(C[C@@H](O)[C@H](Cc1ccccc1)NC(=O)O[C@H]1CO[C@H]2OCC[C@H]21)S(=O)(=O)c1ccc2c(c1)OCO2	fluorescence	Protease	HIV-1		Ki			<0.001 µM
CCOc1ccc([N+](=O)[O-])cc1-c1ccc2cc(-c3nc4cc(C(=O)O)ccc4n3C3CCCCC3)ccc2n1		NS5B polymerase	Hepatitis C virus		inhibition	100 µM		101%
COC(=O)NCCCCC(C)(C)CN(C[C@@H](O)[C@H](Cc1ccccc1)NC(=O)OC1COCOC1)S(=O)(=O)c1ccc2c(c1)OCO2	fluorescence	Protease	HIV-1		Ki			<0.001 µM
CCCN=C(NC#N)NCCCCCC(C)(C)CN(C[C@@H](O)[C@H](Cc1ccccc1)NC(=O)O[C@H]1CO[C@H]2OCC[C@H]21)S(=O)(=O)c1ccc2c(c1)OCO2	fluorescence	Protease	HIV-1		Ki			<0.001 µM